1 compound from patent publication US20240000756A1, “METHODS AND COMPOUNDS FOR TREATMENT OF AUTISM SPECTRUM DISORDER” (Crestone, Inc., priority 2020, published 2024) can be followed below.

This series deals with normal gut flora. The series can be described thus: Phase 1b study, effect on fecal microbiome. The series is classed as in vivo, human.

Take `O=c1cc(NCCCN[C@@H]2CCOc3c(Br)cc(Br)cc32)[nH]c2ccsc12` [CRS3123]: the “effect on proportion of Bacteroidetes” value was “an increase in the proportion of Bacteroidetes” (400 mg BID) and “an increase in the proportion of Bacteroidetes” (600 mg BID).
